Consider 19 molecules from US20240043504A1 (published 2024).

Experiment [1] has as its target UNMODIFIED-SARS-CoV-2 Spike Protein (RBD)(R319-F541).mmH (SARS-CoV-2). The experiment in a line: Luminex beads, supernatant.
Experiment [2] concerns the target SARS-COV-2 RBD extracellular domain expressed with a C-terminal mouse IgG2a (SARS-CoV-2). Briefly: SPR Biacore, mAb captured via anti-hFc, 25 C.
The target of experiment [3] is SARS-COV-2 RBD extracellular domain expressed with a C-terminal mouse IgG2a (SARS-COV-2 RBD-mFc) (SARS-CoV-2). The experiment in a line: SPR, captured mAb, RBD-mFc in solution, 37 C.

B1: mAb11004 (antibody, V domains shown)
VH: QVQLVESGGGVVQPGRSLRLSCVASGFTFSIYGMDWVRQAPGKGLEWVAVISYDGSNKYYADSVKGRFTISRDNSKNTLYLQMNSLRPEDTAVYYCAKDREAAADAFDIWGQGTMVTVSS
VL: DIQMTQSPSSVSASVGDRVTITCRASQGISSWLAWYQQKPGKAPKLLIYAASSLHSGVPSRFSGSGSGTDFTLTISSLQPEDFATYYCQQANSFRLTFGGGTKVEIKR
Regarding B1, in experiment [1], the “Binding signal (MFI)” value stood at 6510 MFI.

B2: mAb10984 (antibody, V domains shown)
VH: EVQLVESGGGLVQPGGSLRLSCAASGLTVNRNYMSWVRQAPGKGLEWVSLIYSGGSTYYADSVKGRFTISRDNSKNTLYLQMNSLRLEDTAVYYCARGELGIPYGMDVWGQGTTVTVSS
VL: QSVLTQPPSVSAAPGQKVTISCSGSSSNIGNNYVSWYQQLPGTAPKLLIYDNNKRPSGIPDRFSGSKSGTSATLGITGLQTGDEADYYCGTWDSSLSAGVFGGGTKLTVLG
As for B2, the “Binding signal (MFI)” value in experiment [1] was 25800 MFI.

B3: mAb11006 (antibody, V domains shown)
VH: EVQLVESGGGLVQPGGSLRLSCAASGFIVSRNYMSWVRQAPGKGLEWVSVIYSGGSTFYADSVKGRFTISRHNSKNTLYLQMNSLKAEDTAVYYCARELRGYFDYWGQGTLVTVSS
VL: DIQLTQSPSFLSASVGDRVTITCWASQGISSYLAWYQQKPGKAPKLLIYAASTLQSGVPSRFSGSGSGTEFTLTISSLQPEDFATYYCQLLNSYPYTFGQGTKLEIKR
For the molecule B3, the “Binding signal (MFI)” value in experiment [1] worked out at 2040 MFI.

B4: mAb11008 (antibody, V domains shown)
VH: EVQLVESGGGLVQPGGSLRLSCAASGFTVSSNYMTWVRQAPGKGLEWVSVIYSGGSTFYADSVKGRFTISRHNSENTLYLQMNSLRAEDTAVYYCARDLAAAGTDYWGQGALVTVSS
VL: DIQLTQSPSFLSASVGDRVTITCWASQGISSYLAWYQQKPGKAPKLLIYAASTLQSGVPSRFSGSGSGTEFTLTISSLQPDDFATYYCQHLNSYLYTFGQGTKLEIKR
B4: in experiment [1], the “Binding signal (MFI)” value amounted to 7100 MFI.

B5: mAb10934 (antibody, V domains shown)
VH: not shown
VL: DIQMTQSPSSLSASVGDRVTITCQASQDIWNYINWYQQKPGKAPKLLIYDASNLKTGVPSRFSGSGSGTDFTFTISSLQPEDIATYYCQQHDDLPPTFGQGTKVEIKR
As for B5, the “Binding signal (MFI)” value in experiment [1] was 33100 MFI.

B6: mAb10935 (antibody, V domains shown)
VH: EVQLVESGGGLVQPGGSLRLSCAASGFTVSSNYMSWVRQAPGKGLEWVSLIYSGGSTYYADSVKGRFTISRHNSKNTLYLQMNSLRSEDTAVYYCARVPLGDYYYGMDVWGQGTTVTVSS
VL: DIQMTQSPSSLSASVGDRVTITCQASQDINKYLNWYQQKPGKAPKLLIYDASNLETGVPSRFSGSGSGTDFTFTISSLQPEDIATYYCQQSDNLPLTFGGGTKVEIKR
As to B6, the “Binding signal (MFI)” value in experiment [1] was 31900 MFI.

B7: mAb10938 (antibody, V domains shown)
VH: EVQLVESGGGLVQPGGSLRLSCAVSGFTVSSNYMSWVRQAPGKGLEWVSLIYSGGSTFYADSVKGRFTISRHNSKNTLYLQMNSLRAEDTAVYYCAREGGYSYDYNYWGQGTLVTVSS
VL: DIQMTQSPSSLSASVGDRVTITCQASQDIRNYLNWYQQKPGKAPKLLIYDASNLETGVPSRFSGIGSGTDFTFTISSLQPEDIATYYCQQYDNLPITFGQGTRLEIKR
As for B7, in experiment [1], the “Binding signal (MFI)” value worked out at 34500 MFI.

B8: mAb10966 (antibody, V domains shown)
VH: EVQLVESGGGLVQPGGSLRLSCAASGLTVSSNYMSWVRQAPGKGLEWVSVIYSGGSTFYADSVKGRFTISRDNSKNTLYLQMNSLRPEDTAVYYCAREGRIAATGYGMDVWGQGTTVTVSS
VL: DIQMTQSPSSLSASVGDRVTITCQASQDISNYLNWYQQKPGKAPKLLIYDASNLGTGVPSRFSGSRSGTDFTFTISSLQPEDIATYYCHQYDNLPQTFGPGTKVDIKR
As for B8, the “Binding signal (MFI)” value in experiment [1] amounted to 29500 MFI.

B9: mAb10954 (antibody, V domains shown)
VH: EVQLVESGGGLVQPGGSLRLSCAASGITVSSNYMSWVRQAPGKGLEWVSLIYSGGSTYYADSVKGRFTISRDNSKNTLYLQMNSLRVEDTAVYYCARDHGMAAAGYNYWGQGTLVTVSS
VL: DIQMTQSPSSLSASVGDRVTITCQASQDINKYLNWYQQKPGKAPKLLIYDASNLETGVPSRFSGSGSGTDFTFTINSLQPEDFATYFCQQYDNLPPAFGQGTKVEIKR
With B9, in experiment [1], the “Binding signal (MFI)” value came to 28500 MFI.

B10: mAb10989 (antibody, V domains shown)
VH: QVQLVQSGAEVKKPGASVKVSCKASGYIFTGYYMHWVRQAPGQGLEWMGWINPNSGGANYAQKFQGRVTLTRDTSITTVYMELSRLRFDDTAVYYCARGSRYDWNQNNWFDPWGQGTLVTVSS
VL: QSALTQPASVSGSPGQSITISCTGTSSDVGTYNYVSWYQQHPGKAPKLMIFDVSNRPSGVSDRFSGSKSGNTASLTISGLQAEDEADYYCSSFTTSSTVVFGGGTKLTVLG
With B10, the “Binding signal (MFI)” value in experiment [1] stood at 19700 MFI.

B11: mAb10922 (antibody, V domains shown)
VH: EVQLVESGGGLVQPGGSLRLSCAASGFTFSIYEMNWVRQAPGKGLEWVSYITSSGTTIYYADSVKGRFTISRDNAKNSLYLQMNSLRAEDTAVYYCASSSSSGYYFDYWGQGTLVTVSS
VL: not shown
In the case of B11, the “Binding signal (MFI)” value in experiment [1] was found to be 33200 MFI.

B12: mAb10922 (antibody, V domains shown)
VH: EVQLVESGGGLVQPGGSLRLSCAASGFTFSIYEMNWVRQAPGKGLEWVSYITSSGTTIYYADSVKGRFTISRDNAKNSLYLQMNSLRAEDTAVYYCASSSSSGYYFDYWGQGTLVTVSS
VL: not shown
B12: in experiment [2], the Kd worked out at 0.0176 nM and the “t½” value is 3.41 h.

B13: mAb10922 (antibody, V domains shown)
VH: EVQLVESGGGLVQPGGSLRLSCAASGFTFSIYEMNWVRQAPGKGLEWVSYITSSGTTIYYADSVKGRFTISRDNAKNSLYLQMNSLRAEDTAVYYCASSSSSGYYFDYWGQGTLVTVSS
VL: not shown
For B13, in experiment [3], binding was characterised by a dissociation constant (Kd) of 0.0349 nM and the “t½” value amounted to 1.2 h.

B14: mAb10971 (antibody, V domains shown)
VH: EVQLVESGGGLIQPGGSLRLSCAASGVTVSSNYMSWVRQAPGKGLEWVSVIYSGGSTFYSDSVKGRFSISRDNSKNTLYLQMNSLRAEDTAVYYCARDLYYYGMDVWGQGTTVTVSS
VL: DIQLTQSPSFLSASVGDRVTITCRASQGISTYLAWYQQKPGKAPKLLIYAASTLQSGVPSRFSGSGSGTEFTLTISSLQPEDFATYYCQQLDSYPGLTFGGGTKVEIKR
On to B14, for which, in experiment [1], the “Binding signal (MFI)” value was found to be 27400 MFI.

B15: mAb10930 (antibody, V domains shown)
VH: EVQLVESGGGLVQPGRSLRLSCAASGFTFDDYAMYWVRQAPGKGLEWVSGISWNSGSIGYADSVKGRFTISRDNAKNSLYLQMNSLRAADTALYYCAKDKDWNSRGYYYYGMDVWGQGTTVTVSS
VL: not shown
With B15, in experiment [1], the “Binding signal (MFI)” value amounted to 29500 MFI.

B16: mAb10939 (antibody, V domains shown)
VH: EVQLVESGGGLVQPGGSLRLSCAASGLTVSSNYMNWVRQVPGKGLEWVSVIYSGGSKFYVDSVKGRFTISRHNSKNTLYLQMNSLRPEDTAVYYCTRDAQYYGMDVWGQGTTVTVSS
VL: DIQMTQSPSSLSASVGDRVTITCRASQSISTYLHWYQQKPGEAPKLLIYAASSLQSGVPSRFSGSGSGTDFTLTISSLQPEDFATYYCQQSYSTPPEIFGQGTKLEIKR
As for B16, the “Binding signal (MFI)” value in experiment [1] came out at 33600 MFI.

B17: mAb10998 (antibody, V domains shown)
VH: EVQLVESGGGLVHPGGSLRLSCAASGLTVSSNYMSWVRQAPGKGLEWVSVIYSGGSTYYADSVKGRFTISRHNSKNTLFLQMNSLRAEDTAVYYCARDRPITGTTLDVWGQGTTVTVSS
VL: DIQMTQSPSSLFASVGDRVTITCRASQSISSYLNWYQQKPGKAPKLLIYAASSLQSGVPSRFSGSGSGTDFTLTISSLQPEDFAFYYCQQTYSTPPITFGQGTRLEIKR
For the molecule B17, the “Binding signal (MFI)” value in experiment [1] is 2560 MFI.

B18: mAb10985 (antibody, V domains shown)
VH: EVQLVESGGGLVQPGRSLRLSCAASGFTFDDYAMHWVRQAPGKGLEWVSGISWNRGSIGYADSVKGRFTISRDNAKNSLYLQMSSLRAEDTALYYCAKDGERWDSVVVPSARNGMDVWGQGTTVTVSS
VL: QSVLTQPPSVSGAPGQRVTISCTGSSSNIGAGYDVHWYQQLPGTAPKLLIYGNSNRPSGVPDRFSGSKSGTSASLAITGLQAEDEADYYCQSYDSSLSGSYVFGTGTKVTVLG
With B18, in experiment [1], the “Binding signal (MFI)” value is 27400 MFI.

B19: mAb10982 (antibody, V domains shown)
VH: EVQLVESGGGLVQPGGSLRLSCAASGLTVSSNYMSWVRQAPGKGLEWVSVIYSGGTTYYADSVKGRFTISRHNSKNTLSLQMNSLRAEDTAVYYCARGEGANYYGMDVWGQGTTVTVSS
VL: QSVLTQPPSVSGAPGQRVTISCTGSSSNIGTGYDVHWYQQLPGTAPKLLIYGNSNRPSGVPDRFSGSKSGTSASLAITGLQAEDEADYYCQSYDSSLSGYVVFGGGTKLTVLG
With B19, the “Binding signal (MFI)” value in experiment [1] turned out to be 27500 MFI.
